{"source": "patent US20060014673A1", "about": "(priority 1998, published 2006)", "key": {"[1]": {"tested_on": "Primary cultures of neonatal rat cortex", "assay": "Fluo-3 fluorimetry of intracellular calcium, non-depolarized cortical cultures", "type": "cell-based"}, "[2]": {"tested_on": "Primary cultures of neonatal rat cortex", "details": "for effect on intracellular calcium levels: increasing concentrations in the continued presence of aconitine"}}, "note": "pEC50: −log10 of the molar value."}
{"compound": "CC[C@H](C)[C@H](NC(=O)[C@@H](NC(=O)[C@H](CO)NC(=O)[C@@H]1CCCN1C(=O)[C@@H](NC(=O)[C@H](CC(C)C)NC(=O)[C@H](Cc1c[nH]c2ccccc12)NC(=O)[C@@H]1CCCN1C(=O)[C@H](C)N)C(C)C)[C@@H](C)O)C(=O)N[C@H](C(=O)N[C@H](C(=O)N[C@H]1CSSC[C@@H]2NC(=O)[C@H](CCCNC(=N)N)NC(=O)[C@H](CSSC[C@@H](C(N)=O)NC(=O)[C@H]([C@@H](C)O)NC(=O)[C@H](CC(N)=O)NC(=O)[C@H](CC(=O)O)NC2=O)NC(=O)[C@@H]2C[C@@H](O)CN2C(=O)[C@@H]2C[C@@H](O)CN2C(=O)[C@@H]2CSSC[C@H](NC1=O)C(=O)NCC(=O)N[C@@H](Cc1ccc(O)cc1)C(=O)N[C@@H](CC(N)=O)C(=O)N1C[C@H](O)C[C@H]1C(=O)NCC(=O)N[C@@H]([C@@H](C)O)C(=O)N[C@@H](CCSC)C(=O)N2)[C@@H](C)O)[C@@H](C)O", "values": [{"measurement": "potency in non-depolarized compared with depolarized cultures", "setting": "[1]", "value": "slightly less potent"}, {"measurement": "pEC50", "setting": "[1]; read-out: potency, increase in intracellular calcium, non-depolarized environment (no Aconitine)", "value": 5.80}, {"measurement": "effect of 4-AP pretreatment on the κA A671 induced calcium response", "setting": "[2]; 2 uM peak 2 in continued presence of 4-AP and aconitine", "value": "reduced the size"}, {"measurement": "potency of peak 2 relative to peak 1", "setting": "[2]; depolarized with Aconitine", "value": "approximately 10 fold"}, {"measurement": "effect on intracellular calcium levels", "setting": "[2]", "value": "further significant enhancement"}, {"measurement": "increase in intracellular calcium in the continued presence of dendrotoxin", "setting": "[2]; peak 2 (2 μM), cells pretreated with aconitine and dendrotoxin", "value": "still able to produce a significant increase"}]}
{"compound": "Ala-Xaa3-Xaa4-Leu-Val-Xaa3-Ser-Thr-Ile-Thr-Thr-Cys-Cys-Gly-Xaa5-Asn-Xaa3-Gly-Thr-Met-Cys-Xaa3-Xaa3-Cys-Arg-Cys-Asp-Asn-Thr-Cys", "values": [{"measurement": "change of the induced response over time", "setting": "[2]; up to 30 min, 1 μM, in Aconitine", "value": "No significant changes"}]}
{"compound": "CC[C@H](C)[C@H](NC(=O)[C@@H](NC(=O)[C@H](CO)NC(=O)[C@@H]1CCCN1C(=O)[C@@H](NC(=O)[C@H](CC(C)C)NC(=O)[C@H](Cc1c[nH]c2ccccc12)NC(=O)[C@@H]1CCCN1C(=O)[C@H](C)N)C(C)C)[C@@H](C)O)C(=O)N[C@H](C(=O)N[C@H](C(=O)N[C@H]1CSSC[C@@H]2NC(=O)[C@H](CCSC)NC(=O)[C@H]([C@@H](C)O)NC(=O)CNC(=O)[C@@H]3C[C@@H](O)CN3C(=O)[C@H](CC(N)=O)NC(=O)[C@H](Cc3ccc(O)cc3)NC(=O)CNC(=O)[C@H](CSSC[C@@H]3NC(=O)[C@H](CCCNC(=N)N)NC(=O)[C@H](CSSC[C@@H](C(N)=O)NC(=O)[C@H]([C@@H](C)O)NC(=O)[C@H](CC(N)=O)NC(=O)[C@H](CC(=O)O)NC3=O)NC(=O)[C@@H]3C[C@@H](O)CN3C(=O)[C@@H]3C[C@@H](O)CN3C2=O)NC1=O)[C@@H](C)O)[C@@H](C)O", "values": [{"measurement": "potency in non-depolarized compared with depolarized cultures", "setting": "[1]", "value": "equally potent"}, {"measurement": "effect on intracellular calcium levels", "setting": "[2]", "value": "further significant enhancement"}]}
